Results on one molecule are retold here after paper PMC2596486 (PLoS ONE, 2008).

For this assay, the target named is HA2 subunit of H5 rHA (band on the reducing immunoblot) (Influenza A virus …, UniProt A5A5M5, strain). The assay can be described thus: far-Western, overlay or dot blot. The conditions noted are these: one partner purified.

B1: CR6323 human IgG1 (antibody, V domains shown)
VH: EVQLVESGAEVKKPGSSVKVSCKASGGTFSSYGISWVRQAPGQGLEWMGDIIGMFGSTNYAQNFQGRLTITADESTSTAYMELSSLRSEDTAVYYCARSSGYYPAYLPHWGQGTLVTVSS
VL: not shown
Turning to B1, the binding result is on record as “binds”.
